Here are results for four compounds from PubChem BioAssay AID720532 (National Center for Advancing Translational Sciences (NCATS), 2013).

Several values for one entry are separate records, joined by “and”; a condition that tells them apart may be missing. Equal values may be shown once. This list holds what a sample rich in hits left over. Results filed as inconclusive are left out. Activity calls are given as the source filed them. The call rests on the fitted dose curve; tested in HEK293 cells.
On the % scale 0 is the no-effect control and ±100 the full control effect.

This experiment is described as follows: qHTS for Inhibitors of binding or entry into cells for Marburg Virus. As to conditions: Marburg virus pseudotype entry/binding inhibition, cell-based; at 49.2 µM (top of the series).
Consider `COc1ccc(C[C@@H](C)NC[C@H](O)c2ccc(O)c(NC=O)c2)cc1`, for which the activity change, negative = inhibition is inactive: -13.9%. Regarding `Clc1ccc(N2CCN(Cc3c[nH]c4ncccc34)CC2)cc1`, the activity change, negative = inhibition is inactive: -3.22% and inactive: 11.4%. Regarding `COc1ccc(C[C@H](C)NC[C@@H](O)c2ccc(O)c(NC=O)c2)cc1`, the activity change, negative = inhibition is inactive: -7.76%.

As for `CC(Cc1ccc(O)cc1)NCC(O)c1cc(O)cc(O)c1` (centres undefined), the activity change, negative = inhibition is inactive: -1.8% and inactive: -3.86%.
